# Laboratory results as given in article PMC8635433, “ChAdOx1 interacts with CAR and PF4 with implications for thrombosis with thrombocytopenia syndrome” (2021).
# Target: ChAdOx1 viral vector (virus particle, capsid) (chimpanzee adenovirus Y25)
# Test: SPR
substance,measurement,value
platelet factor 4 (PF4) (natural protein),Kd,661 nM
